# Columns and labels:
# Cryptococcus neoformans = assay: Susceptibility assay (MIC, broth microdilution, CLSI M27); format: cell-based; conditions: for MIC: 72 h; for MIC NO Dose: calculated NO dose at MIC
# Candida auris = assay: as above; format: cell-based; conditions: for MIC: 24 h; for MIC NO Dose: calculated NO dose at MIC
# Candida albicans = assay: as above; format: cell-based; conditions: for MIC: 24 h; for MIC NO Dose: calculated NO dose at MIC
# [1] = tested on: C. albicans (ATCC MYA-2876); assay: Checkerboard assay of NO donors with antifungals; format: cell-based, Candida albicans
# C. auris (ATCC MYA-5001) = assay: Checkerboard assay of NO donors with antifungals; format: cell-based, Candida auris
# C. albicans (MYA-2876) [2] = assay: Passaging assay (resistance development); format: cell-based, Candida albicans; conditions: 1/10th of MIC daily, 21 passages, regardless of passage
# [3] = tested on: C. neoformans (ATCC208821); assay: Passaging assay (resistance development); format: cell-based, Cryptococcus neoformans; conditions: 1/10th of MIC daily, 21 passages, regardless of passage
# C. albicans (MYA-2876) [4] = assay: Confocal microscopy; format: cell-based, Candida albicans; conditions: 5× MIC, 24 h
# [5] = tested on: Aspergillus fumigatus spores; assay: Susceptibility assay for sporulating fungi (MIC, EUCAST E.Def.9.4); format: cell-based; conditions: Aspergillus fumigatus ATCC 1022 spores
# C. auris (MYA-5001) = assay: Passaging assay (resistance development); format: cell-based, Candida auris; conditions: 1/10th of MIC daily, 21 passages, regardless of passage
# [6] = tested on: C. neoformans (ATCC 208821); assay: Checkerboard assay of NO donors with antifungals; format: cell-based, Cryptococcus neoformans
# [7] = tested on: A. fumigatus (ATCC 1022) spores; assay: Checkerboard assay adapted for spores
# [8] = Cryptococcus neoformans ATCC 208821
# [9] = Cryptococcus neoformans ATCC MYA-4567
# [10] = NO donor combined with 5-fluorocytosine
# [11] = NO donor combined with amphotericin B
# [12] = NO donor combined with butenafine
# [13] = NO donor combined with caspofungin
# [14] = NO donor combined with fluconazole
# [15] = NO donor combined with miconazole
# [16] = NO donor (24 h pretreatment of spores) then 5-fluorocytosine
# [17] = NO donor (24 h pretreatment of spores) then amphotericin B
# [18] = NO donor (24 h pretreatment of spores) then butenafine
# [19] = NO donor (24 h pretreatment of spores) then caspofungin
# [20] = NO donor (24 h pretreatment of spores) then fluconazole
# [21] = NO donor (24 h pretreatment of spores) then miconazole
compound,measurement,setting,value
[O-]/[N+](=N\O)C(/[N+]([O-])=N/O)/[N+]([O-])=N/O,MIC,Cryptococcus neoformans; [8],30 µg/mL
same,MIC NO Dose,Cryptococcus neoformans; [8],4.50 µg/mL
same,MIC NO Dose,Cryptococcus neoformans; Cryptococcus neoformans ATCC MYA-4566,2.99 µg/mL
same,MIC,Cryptococcus neoformans; [9],20 µg/mL
same,MIC NO Dose,Cryptococcus neoformans; [9],2.99 µg/mL
same,MIC,Candida auris; Candida auris ATCC MYA-5000,30 µg/mL
same,MIC NO Dose,Candida auris; Candida auris ATCC MYA-5000,4.49 µg/mL
same,MIC,Candida auris; Candida auris ATCC MYA-5001,20 µg/mL
same,MIC,Candida auris; Candida auris ATCC MYA-5003,40 µg/mL
same,MIC NO Dose,Candida auris; Candida auris ATCC MYA-5003,5.98 µg/mL
same,MIC,Candida albicans; Candida albicans ATCC 14053,150 µg/mL
same,MIC NO Dose,Candida albicans; Candida albicans ATCC 14053,22.4 µg/mL
same,MIC,Candida albicans; Candida albicans ATCC 18804,40 µg/mL
same,MIC NO Dose,Candida albicans; Candida albicans ATCC 18804,5.98 µg/mL
same,MIC,Candida albicans; Candida albicans ATCC MYA-2876,60 µg/mL
same,MIC NO Dose,Candida albicans; Candida albicans ATCC MYA-2876,8.98 µg/mL
same,checkerboard classification,[1]; [10],I (indifferent (I))
same,∑FIC,[1]; [10],≥ 1
same,checkerboard classification,[1]; [11],I (indifferent (I))
same,∑FIC,[1]; [11],≥ 1
same,checkerboard classification,[1]; [12],I (indifferent (I))
same,∑FIC,[1]; [12],≥ 1
same,checkerboard classification,[1]; [13],I (indifferent (I))
same,∑FIC,[1]; [13],≥ 1
same,checkerboard classification,[1]; [14],I (indifferent (I))
same,∑FIC,[1]; [14],≥ 1
same,checkerboard classification,[1]; [15],A (additive (A))
same,∑FIC,[1]; [15],0.530
same,checkerboard classification,C. auris (ATCC MYA-5001); [10],I (indifferent (I))
same,∑FIC,C. auris (ATCC MYA-5001); [10],≥ 1
same,checkerboard classification,C. auris (ATCC MYA-5001); [11],I (indifferent (I))
same,∑FIC,C. auris (ATCC MYA-5001); [11],≥ 1
same,checkerboard classification,C. auris (ATCC MYA-5001); [12],I (indifferent (I))
same,∑FIC,C. auris (ATCC MYA-5001); [12],≥ 1
same,checkerboard classification,C. auris (ATCC MYA-5001); [13],I (indifferent (I))
same,∑FIC,C. auris (ATCC MYA-5001); [13],≥ 1
same,checkerboard classification,C. auris (ATCC MYA-5001); [14],I (indifferent (I))
same,∑FIC,C. auris (ATCC MYA-5001); [14],≥ 1
same,checkerboard classification,C. auris (ATCC MYA-5001); [15],A (additive (A))
same,∑FIC,C. auris (ATCC MYA-5001); [15],0.562
same,change in MIC or MFCs after serial passaging,C. albicans (MYA-2876) [2],no change
same,change in MIC or MFCs after serial passaging,[3],no change
same,intracellular NO (DAF-2 DA fluorescence),C. albicans (MYA-2876) [4],increased NO levels within treated fungi
same,propidium iodide fluorescence (cell death),C. albicans (MYA-2876) [4]; relative to control sample,visual increase in PI fluorescence
same,hyphae formation (calcofluor white staining),C. albicans (MYA-2876) [4]; relative to controls,marked decrease in hyphae formation
same,MIC,[5],70 µg/mL
same,MIC NO Dose,[5]; calculated NO dose at MIC,10.5 µg/mL
same,change in MIC or MFCs after serial passaging,C. auris (MYA-5001),no change
same,checkerboard classification,[6]; [10],I (indifferent (I))
same,∑FIC,[6]; [10],≥ 1
same,checkerboard classification,[6]; [11],I (indifferent (I))
same,∑FIC,[6]; [11],≥ 1
same,checkerboard classification,[6]; [12],A (additive (A))
same,∑FIC,[6]; [12],0.500
same,checkerboard classification,[6]; [13],I (indifferent (I))
same,∑FIC,[6]; [13],≥ 1
same,checkerboard classification,[6]; [14],I (indifferent (I))
same,∑FIC,[6]; [14],≥ 1
same,checkerboard classification,[6]; [15],I (indifferent (I))
same,∑FIC,[6]; [15],≥ 1
same,checkerboard classification,[7]; [16],I (indifferent (I))
same,∑FIC,[7]; [16],≥ 1
same,checkerboard classification,[7]; [17],I (indifferent (I))
same,∑FIC,[7]; [17],≥ 1
same,checkerboard classification,[7]; [18],I (indifferent (I))
same,∑FIC,[7]; [18],≥ 1
same,checkerboard classification,[7]; [19],I (indifferent (I))
same,∑FIC,[7]; [19],≥ 1
same,checkerboard classification,[7]; [20],I (indifferent (I))
same,∑FIC,[7]; [20],≥ 1
same,checkerboard classification,[7]; [21],I (indifferent (I))
same,∑FIC,[7]; [21],≥ 1

# Source: article PMC11121837, “Impact of Nitric Oxide-Release Kinetics on Antifungal Activity” (Journal of Fungi, 2024)
